Results of unrelated studies side by side (data: NIAID ChemDB).

Shared fields: whole-cell or culture tests; agent: Cryptococcus neoformans

Rows are shuffled and stem from different studies. Blank or dashed fields: not listed here. Percent inhibition refers to the dose given; in toxicity tests it is the harm to the cells. MIC50, MIC90 and the like: level of inhibition, or share of isolates inhibited. ECn is the concentration giving n% inhibition of infection, replication or growth.

| structure | strain | method | endpoint | dose | value |
|---|---|---|---|---|---|
| Oc1ccc(O)c(C=Nc2ccccc2O)c1 | ATCC 24067 |  | MIC99 |  | 8 µg/mL |
| C[C@@H](c1nc(-c2ccc(C#N)cc2)cs1)[C@](O)(Cn1cnnc1)c1ccc(F)cc1F | A25838 |  | MFC99 |  | 0.5 µg/mL |
| O=[N+]([O-])c1ccc(C=Nc2ccccc2O)cc1 | 96806 |  | MIC99 |  | 11.3 µg/mL |
| Cn1nc(Cc2ccc(Cl)cc2)c2ccccc2c1=O | Clinical isolate (IM 983036) | broth dilution | MFC |  | ≥250 µg/mL |
| CN[C@H]1CC[C@@H](c2ccc(Cl)c(Cl)c2)c2ccccc21 | H99 | broth dilution | MFC |  | 10 µg/mL |
| NCCCC[C@H](NC(=O)[C@H](CCCN=C(N)N)NC(=O)[C@H](CCCN=C(N)N)NC(=O)[C@H](CCCCN)NC(=O)[C@H](CCCCN)NC(=O)[C@@H](N)CCCCN)C(=O)N[C@@H](CCCN=C(N)N)C(=O)O | ATCC 32264 |  | inhibition | 25 µM | 10% |
| C=C1CO[C@H]2[C@@H](C)OC(OC[C@@]34C[C@H]5[C@H](C)CC[C@@H]5[C@@]5(C=O)C[C@@H]3C=C(C(C)C)[C@@]45C(=O)O)C[C@@H]12 | 16 strains (serotype D) |  | Mean MIC |  | 0.5 µg/mL |
| Oc1ccccc1N=Cc1ccccc1 | LMM 820 |  | MIC99 |  | 5.7 µg/mL |
| CCNC(=S)N/N=C(\N)c1ccccn1 | ATCC 62066 |  | MIC100 |  | >416.7 µM |
| Oc1ccccc1N=Cc1ccc2c(c1)OCO2 | 96806 |  | MIC99 |  | 5.7 µg/mL |
| C[C@@H](n1ncn(-c2ccc(OCC(F)(F)C(F)F)cc2)c1=O)[C@](O)(Cn1cncn1)c1ccc(F)cc1F | DUMC 135.97 |  | MFC |  | 0.5 µg/mL |
| CC1(C)O[C@H]2[C@H](O)[C@@H](N=[N+]=[N-])C=C(c3ccc(C=O)cc3)[C@H]2O1 | ATCC 32264 | broth dilution / turbidity | inhibition | 250 µg/mL | 61.84% |
| CCOC(=O)c1c(C)nc(OCCCNc2ccnc3cc(Cl)ccc23)nc1-c1ccccc1 | 96806 |  | MIC99 |  | 45.3 µg/mL |
| C[C@H]([C@](O)(Cn1cncn1)c1ccc(F)cc1F)S(C)(=O)=O | R717 (AZOLE-R) |  | EC50 |  | 2 µM |
| C[C@@H](n1cnc2cc(Cl)ccc2c1=O)[C@](O)(Cn1cncn1)c1ccc(F)cc1F | Isolate 251.86 |  | MFC |  | 20 µg/mL |
| N=C(N)c1ccc2nc(-c3ccc(-c4nc5ccc(C(=N)N)cc5[nH]4)[nH]3)[nH]c2c1 | 9 strains |  | Geometric mean MFC |  | 0.42 µg/mL |

Repeating the final 2 entries:

structure	strain	method	endpoint	dose	value
C[C@@H](n1cnc2cc(Cl)ccc2c1=O)[C@](O)(Cn1cncn1)c1ccc(F)cc1F	Isolate 251.86		MFC		20 µg/mL
N=C(N)c1ccc2nc(-c3ccc(-c4nc5ccc(C(=N)N)cc5[nH]4)[nH]3)[nH]c2c1	9 strains		Geometric mean MFC		0.42 µg/mL